US20200262877A1, “ION CHANNEL-BINDING PEPTIDES AND METHODS OF USE THEREOF” (priority 2017, published 2020)

Key:
Assay in all cases: cell-based or functional assay
[1] = target: Nav1.7
[2] = target: Nav1.5
[3] = target: α3β4 nicotinic receptor
[4] = target: Kv2.1
[5] = target: Kv1.2
[6] = target: 5HT3a
[7] = target: T1, hERG, Q12809
T1 chain: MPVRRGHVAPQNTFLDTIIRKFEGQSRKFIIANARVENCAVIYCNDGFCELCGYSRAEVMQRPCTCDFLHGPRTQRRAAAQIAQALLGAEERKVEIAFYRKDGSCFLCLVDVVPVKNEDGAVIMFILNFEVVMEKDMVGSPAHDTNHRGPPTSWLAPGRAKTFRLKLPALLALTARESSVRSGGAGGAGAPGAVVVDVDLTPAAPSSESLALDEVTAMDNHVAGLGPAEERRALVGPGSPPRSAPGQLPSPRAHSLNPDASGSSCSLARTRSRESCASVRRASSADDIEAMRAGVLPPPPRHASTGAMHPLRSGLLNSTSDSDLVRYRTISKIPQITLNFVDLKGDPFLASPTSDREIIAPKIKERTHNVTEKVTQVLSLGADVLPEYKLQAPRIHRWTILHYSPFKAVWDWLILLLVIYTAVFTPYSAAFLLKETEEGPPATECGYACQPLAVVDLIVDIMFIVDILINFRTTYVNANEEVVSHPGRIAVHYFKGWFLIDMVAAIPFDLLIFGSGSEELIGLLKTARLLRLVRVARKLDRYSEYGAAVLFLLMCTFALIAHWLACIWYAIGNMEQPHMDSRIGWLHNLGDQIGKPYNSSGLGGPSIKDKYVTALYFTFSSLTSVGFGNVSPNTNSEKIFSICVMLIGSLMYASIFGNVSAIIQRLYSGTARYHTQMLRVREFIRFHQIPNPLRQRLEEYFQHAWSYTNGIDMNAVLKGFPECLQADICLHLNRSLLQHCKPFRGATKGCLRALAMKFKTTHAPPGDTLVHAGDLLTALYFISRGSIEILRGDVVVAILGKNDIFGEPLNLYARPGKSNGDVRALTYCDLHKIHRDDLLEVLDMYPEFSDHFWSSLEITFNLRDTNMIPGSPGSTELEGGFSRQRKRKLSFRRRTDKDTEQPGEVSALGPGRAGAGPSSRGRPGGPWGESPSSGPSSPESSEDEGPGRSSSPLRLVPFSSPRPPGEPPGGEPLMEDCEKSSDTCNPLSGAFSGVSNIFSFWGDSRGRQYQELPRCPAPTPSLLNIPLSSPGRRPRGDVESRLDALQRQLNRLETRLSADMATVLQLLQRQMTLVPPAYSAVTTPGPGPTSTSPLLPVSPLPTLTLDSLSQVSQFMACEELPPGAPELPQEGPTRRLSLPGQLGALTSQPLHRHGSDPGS

[8] = target: TRPV1
[9] = target: Kir2.1
[10] = target: α4β2 nicotinic receptor
[11] = target: NR2B
[12] = target: Kv1.1
[13] = target: TRPA1
[14] = target: Nav1.3 sodium channel (human SCN3A gene) (human), Q9NY46
[15] = target: GABA
[16] = target: Kv1.3 potassium channel (human KCNA3 gene) (human), P22001
[17] = target: Kv1.5 potassium channel (human KCNA5 gene) (human), P22460
[18] = target: Nav1.4 sodium channel (human SCN4A gene) (human), P35499
[19] = target: Nav1.7 sodium channel (human SCN9A gene) (human), Q15858
[20] = target: Nav1.5 cardiac sodium channel (human SCN5A gene) (human), Q14524
[21] = target: Cav2.2
[22] = target: Kv1.3
[23] = target: Cav2.1
[24] = target: NR2A

B1: SEQ ID NO: 31 (peptide)
peptide: GSECLEIFKACNPSNDQCCKSSKLVCSRKTRWCKYQIG
modifications: not checked
- % activity at 20 µM (TP1) [1]: -2%
- % activity at 20 µM (TP2) [1]: -5%
- % activity at 0.2 µM (TP1) [2]: 87%
- % activity at 0.2 µM (TP2) [2]: 84%
- % activity at 20 µM [3]: 90%
- % activity at 0.2 µM [4]: 111%
- % activity at 20 µM [4]: 111%
- % activity at 0.2 µM [5]: 128%
- % activity at 20 µM [5]: 45%
- % activity at 0.2 µM [6]: 75%
- % activity at 20 µM [6]: 84%
- % activity at 20 µM [7]: 68%
- % activity at 20 µM [8]: 71%

B2: SEQ ID NO: 32 (peptide)
peptide: GSQDKCKKVYENYPVSKCQLANQCNYDCKLDKHARSGECFYDEKRNLQCICDYCEY
modifications: not checked
- % activity at 20 µM [9]: 79%
- % activity at 0.2 µM [10]: 81%
- % activity at 20 µM (TP1) [2]: 90%
- % activity at 20 µM (TP2) [2]: 90%
- % activity at 0.2 µM [3]: 100%
- % activity at 0.2 µM [11]: 76%
- % activity at 0.2 µM [12]: 76%
- % activity at 20 µM [12]: 114%
- % activity at 0.2 µM [13]: 130%
- % activity at 0.2 µM [7]: 90%
- % activity at 20 µM [7]: 65%
- % activity at 20 µM [8]: 84%

B3: SEQ ID NO: 10 (peptide)
peptide: GSQVQTNVKCQGGSCASVCRREIGVAAGKCINGKCVCYRN
modifications: not checked
- % activity at 0.2 µM [9]: 100%
- IC50 of current inhibition, TP1 [14]: > 1 µM
- IC50 of current inhibition, TP2 [14]: > 1 µM
- % activity at 0.2 µM [15]: 129%
- IC50 of current inhibition, TP1 [16]: > 1 µM
- IC50 of current inhibition, TP6 [16]: > 1 µM
- IC50 of current inhibition, TP1 [17]: > 1 µM
- IC50 of current inhibition, TP6 [17]: > 1 µM
- % activity at 0.2 µM [5]: 135%
- IC50 of current inhibition, TP1 [18]: > 1 µM
- IC50 of current inhibition, TP2 [18]: > 1 µM
- IC50 of current inhibition, TP1 [19]: > 1 µM
- IC50 of current inhibition, TP2 [19]: > 1 µM
- % activity at 0.2 µM [6]: 90%
- % activity at 20 µM [7]: 80%
- IC50 of current inhibition, TP1 [20]: > 1 µM
- IC50 of current inhibition, TP2 [20]: > 1 µM

B4: SEQ ID NO: 39 (peptide)
peptide: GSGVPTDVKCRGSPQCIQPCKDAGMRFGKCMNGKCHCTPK
modifications: not checked
- % activity at 0.2 µM (TP1) [1]: 42%
- % activity at 0.2 µM (TP2) [1]: 39%
- % activity at 0.2 µM [15]: 111%
- % activity at 20 µM (TP1) [2]: 111%
- % activity at 20 µM (TP2) [2]: 114%
- % activity at 0.2 µM [12]: 37%
- % activity at 20 µM [12]: 21%
- % activity at 0.2 µM [4]: 118%
- % activity at 0.2 µM [21]: 117%
- % activity at 0.2 µM [22]: 7%
- % activity at 20 µM [22]: 1%
- % activity at 0.2 µM [6]: 67%
- % activity at 20 µM [6]: 55%
- % activity at 20 µM [8]: 83%

B5: SEQ ID NO: 2 (peptide)
peptide: GSEVIRCSGSKQCYGPCKQQTGCTNSKCMNKVCKCYGCG
modifications: not checked
- % activity at 0.2 µM (TP1) [1]: 89%
- % activity at 0.2 µM (TP2) [1]: 74%
- % activity at 20 µM [9]: 89%
- % activity at 20 µM [10]: 87%
- % activity at 0.2 µM [11]: 118%
- % activity at 20 µM [11]: 72%
- % activity at 0.2 µM [12]: 114%
- % activity at 20 µM [12]: 68%
- % activity at 0.2 µM [4]: 80%
- % activity at 20 µM [4]: 87%
- % activity at 0.2 µM [22]: 8%
- % activity at 20 µM [22]: 1%
- % activity at 0.2 µM [5]: 34%
- % activity at 20 µM [5]: 39%
- % activity at 20 µM [8]: 81%

B6: SEQ ID NO: 12 (peptide)
peptide: GSNFKVEGACSKPCRKYCIDKGARNGKCINGRCHCYY
modifications: not checked
- % activity at 0.2 µM (TP1) [1]: 61%
- % activity at 0.2 µM (TP2) [1]: 66%
- % activity at 20 µM (TP1) [1]: 74%
- % activity at 20 µM (TP2) [1]: 63%
- % activity at 0.2 µM [23]: 109%
- % activity at 0.2 µM (TP1) [2]: 98%
- % activity at 0.2 µM (TP2) [2]: 95%
- % activity at 0.2 µM [11]: 122%
- % activity at 20 µM [11]: 83%
- % activity at 20 µM [22]: 23%
- % activity at 0.2 µM [13]: 129%
- % activity at 20 µM [13]: 80%
- % activity at 20 µM [5]: 41%
- % activity at 20 µM [7]: 81%

B7: SEQ ID NO: 15 (peptide)
peptide: GSAVCNLKRCQLSCRSLGLLGKCIGDKCECVKHG
modifications: not checked
- % activity at 0.2 µM (TP1) [1]: 91%
- % activity at 0.2 µM (TP2) [1]: 97%
- % activity at 20 µM (TP1) [1]: 75%
- % activity at 20 µM (TP2) [1]: 58%
- % activity at 0.2 µM [9]: 107%
- % activity at 20 µM [9]: 88%
- % activity at 0.2 µM [15]: 122%
- % activity at 20 µM [15]: 97%
- % activity at 0.2 µM [10]: 71%
- % activity at 20 µM [10]: 95%
- % activity at 0.2 µM [23]: 106%
- % activity at 20 µM [23]: 86%
- % activity at 0.2 µM (TP1) [2]: 90%
- % activity at 0.2 µM (TP2) [2]: 91%
- % activity at 20 µM (TP1) [2]: 78%
- % activity at 20 µM (TP2) [2]: 79%
- % activity at 0.2 µM [3]: 91%
- % activity at 20 µM [3]: 86%
- % activity at 0.2 µM [11]: 103%
- % activity at 20 µM [11]: 88%
- % activity at 0.2 µM [12]: 69%
- % activity at 20 µM [12]: 72%
- % activity at 0.2 µM [4]: 91%
- % activity at 20 µM [4]: 88%
- % activity at 0.2 µM [21]: 105%
- % activity at 20 µM [21]: 106%
- % activity at 0.2 µM [22]: 86%
- % activity at 20 µM [22]: 90%
- % activity at 0.2 µM [13]: 114%
- % activity at 20 µM [13]: 76%
- % activity at 0.2 µM [24]: 97%
- % activity at 20 µM [24]: 76%
- % activity at 0.2 µM [5]: 77%
- % activity at 20 µM [5]: 76%
- % activity at 0.2 µM [6]: 86%
- % activity at 20 µM [6]: 74%
- % activity at 0.2 µM [7]: 79%
- % activity at 20 µM [7]: 67%
- % activity at 0.2 µM [8]: 124%
- % activity at 20 µM [8]: 99%

B8: SEQ ID NO: 16 (peptide)
peptide: GSQFCGTNGKPCVNGQCCGALRCVVTYHYADGVCLKMNP
modifications: not checked
- % activity at 0.2 µM (TP1) [1]: 86%
- % activity at 0.2 µM (TP2) [1]: 91%
- % activity at 20 µM (TP1) [1]: 66%
- % activity at 20 µM (TP2) [1]: 43%
- % activity at 0.2 µM [9]: 98%
- % activity at 20 µM [9]: 92%
- % activity at 0.2 µM [15]: 102%
- % activity at 20 µM [15]: 109%
- % activity at 0.2 µM [10]: 83%
- % activity at 20 µM [10]: 72%
- % activity at 0.2 µM [23]: 113%
- % activity at 20 µM [23]: 92%
- % activity at 0.2 µM (TP1) [2]: 107%
- % activity at 0.2 µM (TP2) [2]: 104%
- % activity at 20 µM (TP1) [2]: 93%
- % activity at 20 µM (TP2) [2]: 93%
- % activity at 0.2 µM [3]: 100%
- % activity at 20 µM [3]: 95%
- % activity at 0.2 µM [11]: 88%
- % activity at 20 µM [11]: 91%
- % activity at 0.2 µM [12]: 84%
- % activity at 20 µM [12]: 67%
- % activity at 0.2 µM [4]: 114%
- % activity at 20 µM [4]: 98%
- % activity at 0.2 µM [21]: 124%
- % activity at 20 µM [21]: 104%
- % activity at 0.2 µM [22]: 92%
- % activity at 20 µM [22]: 92%
- % activity at 0.2 µM [13]: 99%
- % activity at 20 µM [13]: 116%
- % activity at 0.2 µM [24]: 101%
- % activity at 20 µM [24]: 95%
- % activity at 0.2 µM [5]: 78%
- % activity at 20 µM [5]: 61%
- % activity at 0.2 µM [6]: 114%
- % activity at 20 µM [6]: 103%
- % activity at 0.2 µM [7]: 74%
- % activity at 20 µM [7]: 71%
- % activity at 0.2 µM [8]: 107%
- % activity at 20 µM [8]: 88%
